# Laboratory results: ChEMBL document CHEMBL1146972, “Specific inhibitors of Plasmodium falciparum thioredoxin reductase as potential antimalarial agents” (Bioorg Med Chem Lett, 2006)
# Amino acid sequences for entries named in this document (tags omitted). A change or cut given only in a name is not applied to a line headed by its entry.
# UniProt P61076: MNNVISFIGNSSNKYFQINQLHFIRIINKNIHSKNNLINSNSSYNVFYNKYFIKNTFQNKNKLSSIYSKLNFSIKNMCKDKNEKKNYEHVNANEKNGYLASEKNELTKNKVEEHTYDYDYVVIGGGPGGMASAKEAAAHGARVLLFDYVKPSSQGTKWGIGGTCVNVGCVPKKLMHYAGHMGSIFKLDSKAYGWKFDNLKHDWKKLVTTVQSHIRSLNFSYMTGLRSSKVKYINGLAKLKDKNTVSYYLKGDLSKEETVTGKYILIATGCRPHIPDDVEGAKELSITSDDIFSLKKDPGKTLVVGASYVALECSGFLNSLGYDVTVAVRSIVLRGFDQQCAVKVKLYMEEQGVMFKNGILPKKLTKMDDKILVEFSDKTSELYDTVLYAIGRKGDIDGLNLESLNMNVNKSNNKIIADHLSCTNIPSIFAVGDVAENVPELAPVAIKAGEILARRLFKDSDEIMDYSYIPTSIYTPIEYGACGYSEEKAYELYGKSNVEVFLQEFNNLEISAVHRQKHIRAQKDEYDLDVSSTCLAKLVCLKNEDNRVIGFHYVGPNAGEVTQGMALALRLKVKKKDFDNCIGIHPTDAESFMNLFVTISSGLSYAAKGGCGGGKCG
# Target: Thioredoxin reductase (Plasmodium falciparum 3D7, UniProt P61076)
structure (smiles),measurement,value
O=[N+]([O-])c1cc([N+](=O)[O-])c2nsnc2c1,IC50,10 µM
